Reference: article PMC3097197 (PLoS ONE, 2011)

Biological target: YscN optimized catalytic domain (Yersinia pestis, UniProt Q7ARI8, C159S)

Substance: ATP
- apparent Vmax (10 mM Tris pH 7.6, 150 mM NaCl, 1 mM Mg2+, 37°C): 10.52±0.51 µmole Pi/min/mg of enzyme
- Km (read-out: apparent Km, 10 mM Tris pH 7.6, 150 mM NaCl, 1 mM Mg2+, 37°C): 360 µM
- Hill's coefficient (up to [ATP] = 4 mM): 1.31±0.28
